In US20090005313A1:

Target: HV62, synthetic peptide corresponding to residues 33 to 94 of human VAMP-2 (human) (UniProt P63027)
Assay: cell-based or functional assay

Un-nicked SC TeNT E234A (protease-deficient mutant)
Initial rate of cleavage of HV62 (nmol. min^-1 mg^-1): < 0.01
